Source: paper PMC12445440 (Journal of Medical Virology, 2025)

Test system: ZIKV^Br
Assay: Virus yield reduction assay, ZIKV^Br on Huh-7 cells
Format: cell-based, Zika virus
[1] = Table S2, this paper data, ZIKV, Huh-7 cells, Na = no detected antiviral activity, ratio CC50 / EC50
[2] = CC50/EC50, ZIKV^Br on Huh-7 cells

Row | SMILES | SI [1] | SI [2]
1 | O=c1nc(NO)ccn1[C@@H]1O[C@H](CO)[C@@H](O)[C@H]1O [EIDD-1931, β‐D‐N4‐hydroxycytidine, reference compound] | 87 | –
2 | CC(C)c1nc2cc3cccnc3c(Cl)c2[nH]c1=O [PS462] | 3 | < 2.9
3 | O=c1[nH]c2cc3cccnc3c(Cl)c2nc1-c1cccs1 [PS1097, 5‐chloro‐3‐(thiophen‐2‐yl) pyrido[2,3‐g] quinoxalin‐2(1H)‐one] | 331.7 | 331.7
4 | Cn1c(=O)c(-c2cccs2)nc2c(Cl)c3ncccc3cc21 [PS1240] | 142.3 | 142.3
5 | CC(C)OC(=O)[C@H](C)N[P@](=O)(OC[C@H]1O[C@@H](n2ccc(=O)[nH]c2=O)[C@](C)(F)[C@@H]1O)Oc1ccccc1 [SOF, Sofosbuvir, reference compound] | 184 | 184
